Compound potency records, mixed from different reports. Data source: NIAID ChemDB in PubChem.

All rows: tests in culture; agent: HIV-2; method: cytopathic effect / MTT; read-out: EC50

Rows are shuffled and stem from different studies. ECn: concentration that inhibits the pathogen or its effect by n%.

COC(=O)[C@H](CCCN=C(N)N)NC(=O)CCNC(=O)CN(CCNC(=O)CN(CCNC(=O)OCc1ccccc1)C(=O)Cn1cnc2c(=O)[nH]c(N)nc21)C(=O)Cn1cnc2c(N)ncnc21 ; cells: PBMC/D194 + PBMC ; value: >200 µM
COc1c(Cl)cc(C(=CCCCCN[C@@H]2CC[C@]3(C)C4CC[C@@]5(C)C(CC[C@@H]5C(C)CCCC(C)C)C4CC[C@H]3C2)c2cc(Cl)c(OC)c(C(=O)O)c2)cc1C(=O)O ; strain or isolate: ROD ; cells: MT-4 ; value: >150 µM
CC1(C)OS(=O)(=O)C=C1NCCc1ccccc1 ; strain or isolate: ROD ; cells: MT-4 ; value: >125 µg/mL
CC(=O)OCC1=C[C@@H]2C(=O)[C@]3(C=C(C)[C@H](OC(C)=O)[C@@]3(O)[C@@H]1OC(C)=O)[C@H](C)C[C@@H]1[C@H]2C1(C)C ; strain or isolate: EHO ; cells: MT-4 ; value: 0.074 µM
COc1ccc(CCN2C(=O)/C(=C\c3cccc(Cl)c3)N(CCc3ccc(OC)c(OC)c3)C2=S)cc1OC ; strain or isolate: ROD ; cells: MT-4 ; value: >47.2 µg/mL
COC(=O)/C=C1\S/C(=N/N=C/c2ccccc2Cl)NC1=O ; strain or isolate: ROD ; cells: MT-4 ; value: >78.7 µM
Cc1cc(C)c(-c2c3nc(c(-c4c(C)cc(C)cc4C)c4ccc([nH]4)c(-c4c(C)cc(C)cc4C)c4nc(c(-c5c(C)cc(C)cc5C)c5ccc2[nH]5)C=C4)C=C3)c(C)c1 ; strain or isolate: ROD ; cells: MT-4 ; value: 1 µg/mL
CC(C)c1c(Cc2ccccc2)n(CCCCCC(N)=O)c(=O)[nH]c1=O ; strain or isolate: EHO ; cells: MT-4 ; value: >100 µM
COc1cccc(Nn2c(-c3ccccc3)c(C)[nH]c2=S)c1 ; strain or isolate: ROD ; cells: MT-4 ; value: >12.3 µg/mL
OCCOCc1cc(I)c(F)cc1F ; cells: CEM ; value: >500 µg/mL
CC1(C)C(N)=CS(=O)(=O)N1Cc1ccc(Cl)cc1 ; strain or isolate: ROD ; cells: MT-4 ; value: >75 µg/mL
O=C(Nc1sccc1S(=O)(=O)c1ccc(Cl)cc1)C(F)(F)C(F)(F)C(F)(F)F ; strain or isolate: ROD ; cells: CEM + CEM/O ; value: >8 µg/mL
C=C(C)[C@@H]1CC[C@]2(C(=O)NCCCCCCCC(=O)N[C@@H](CC(C)C)[C@@H](O)CC(=O)O)CC[C@]3(C)[C@H](CC[C@@H]4[C@@]5(C)CC[C@H](O)C(C)(C)[C@@H]5CC[C@]43C)[C@@H]12 ; strain or isolate: ROD ; cells: CEM ; value: >1 µM
O=C(O)C1=CC(=C(c2ccc(O)c(C(=O)O)c2)c2ccc(O)c(C(=O)O)c2)C=C(Cc2ccc(O)c(C(=O)O)c2)C1=O ; strain or isolate: ROD ; cells: MT-4 ; value: 7.1 µg/mL
Cc1cc(COC(CO)CO)c(F)cc1F ; cells: CEM ; value: >500 µg/mL
CC1(C)OS(=O)(=O)C=C1NCc1ccccc1 ; strain or isolate: ROD ; cells: MT-4 ; value: >125 µg/mL
COc1c(Cl)cc(C(=CCCNC(=O)C[C@H]2CC[C@]3(C)C4CC[C@@]5(C)C(CC[C@@H]5CC(=O)NCCC=C(c5cc(Cl)c(OC)c(C(=O)O)c5)c5cc(Cl)c(OC)c(C(=O)O)c5)C4CC[C@H]3C2)c2cc(Cl)c(OC)c(C(=O)O)c2)cc1C(=O)O ; strain or isolate: ROD ; cells: MT-4 ; value: 52 µM
COc1ncnc(NS(=O)(=O)c2ccc(N=C3C(=O)N(CN4CCOCC4)c4ccccc43)cc2)c1OC ; strain or isolate: ROD ; cells: MT-4 ; value: >1 µg/mL
COC(=O)/C=C1\S/C(=N/N=C/c2cccc(OC)c2)NC1=O ; strain or isolate: ROD ; cells: MT-4 ; value: >61.3 µM
COC(=O)Cn1c(Cc2ccccc2)c(C(C)C)c(=O)[nH]c1=O ; strain or isolate: EHO ; cells: MT-4 ; value: >100 µM
COc1ncnc(NS(=O)(=O)c2ccc(N=C3C(=O)N(CN(C)C)c4ccccc43)cc2)c1OC ; strain or isolate: ROD ; cells: MT-4 ; value: >1 µg/mL
COc1ccc(CCN2C(=O)/C(=C\c3cccc(Oc4ccccc4)c3)N(CCc3ccc(OC)c(OC)c3)C2=S)cc1OC ; strain or isolate: ROD ; cells: MT-4 ; value: >24.9 µg/mL
Cc1cccc(Nn2c(-c3ccccc3)c(C)[nH]c2=S)c1 ; strain or isolate: ROD ; cells: MT-4 ; value: >35.71 µM
CN(C)c1nc(N)nc2c1ncn2CCOCP(=O)(O)O ; strain or isolate: ROD ; cells: CEM ; value: 0.8 µg/mL
COC(=O)c1ccc(C2(C)OS(=O)(=O)C=C2N)cc1 ; strain or isolate: ROD ; cells: MT-4 ; value: >125 µg/mL
COc1cccc(Nn2c(-c3ccccc3)c(C)[nH]c2=S)c1 ; strain or isolate: ROD ; cells: MT-4 ; value: >38.02 µM
COC(=O)/C=C1\S/C(=N/N=C/c2cccc(Br)c2)NC1=O ; strain or isolate: ROD ; cells: MT-4 ; value: >11.15 µM
O=c1c2ccccc2nc2scnn12 ; strain or isolate: ROD ; cells: MT-4 ; value: 63.7 µg/mL
COc1ncnc(NS(=O)(=O)c2ccc(N=C3C(=O)N(CN4CCNCC4)c4ccccc43)cc2)c1OC ; strain or isolate: ROD ; cells: MT-4 ; value: >2 µg/mL
Cc1ncn(Nc2cccc(Cl)c2)c1-c1cccc(C#N)c1 ; strain or isolate: ROD ; cells: MT-4 ; value: >36.79 µM
C=CCNc1nc(N)nc2c1ncn2CCOCP(=O)(O)O ; strain or isolate: ROD ; cells: CEM ; value: >0.032 µg/mL
Brc1cccc(-c2nnc3sc(CC45CC6CC(CC(C6)C4)C5)nn23)c1 ; strain or isolate: ROD ; cells: MT-4 ; value: >125 µg/mL
O=[N+]([O-])c1cc(COC(CO)CO)c(F)cc1F ; cells: CEM ; value: >500 µg/mL
CC(=O)Nc1sc(Br)cc1S(=O)(=O)c1ccc(Cl)cc1 ; strain or isolate: ROD ; cells: CEM + CEM/O ; value: >200 µg/mL
O=S(=O)(O)OCC1OC2OC3C(COS(=O)(=O)O)OC(OC4C(COS(=O)(=O)O)OC(OC5C(COS(=O)(=O)O)OC(OC6C(COS(=O)(=O)O)OC(OC7C(COS(=O)(=O)O)OC(OC8C(COS(=O)(=O)O)OC(OC9C(COS(=O)(=O)O)OC(OC1C(OS(=O)(=O)O)C2OS(=O)(=O)O)C(OS(=O)(=O)O)C9OS(=O)(=O)O)C(OS(=O)(=O)O)C8OS(=O)(=O)O)C(OS(=O)(=O)O)C7OS(=O)(=O)O)C(OS(=O)(=O)O)C6OS(=O)(=O)O)C(OS(=O)(=O)O)C5OS(=O)(=O)O)C(OS(=O)(=O)O)C4OS(=O)(=O)O)C(OS(=O)(=O)O)C3OS(=O)(=O)O ; strain or isolate: ROD ; cells: MT-4 ; value: 0.4 µg/mL
Brc1ccc(-c2nnc3sc(CC45CC6CC(CC(C6)C4)C5)nn23)cc1 ; strain or isolate: ROD ; cells: MT-4 ; value: >125 µg/mL
Cc1cc(C)cc(Nn2c(-c3ccccc3)c(C)[nH]c2=S)c1 ; strain or isolate: ROD ; cells: MT-4 ; value: >194 µM
Cc1ccc(-c2nnc3sc(CC45CC6CC(CC(C6)C4)C5)nn23)cc1 ; strain or isolate: ROD ; cells: MT-4 ; value: >125 µg/mL
COC(=O)[C@H](CCCN=C(N)N)NC(=O)CCCCCNC(=O)CN(CCNC(=O)CN(CCNC(=O)OCc1ccccc1)C(=O)Cn1cnc2c(N)ncnc21)C(=O)Cn1cnc2c(=O)[nH]c(N)nc21 ; cells: PBMC/D194 + PBMC ; value: 11 µM
Cc1[nH]c(=S)n(Nc2ccccc2Cl)c1-c1ccccc1 ; strain or isolate: ROD ; cells: MT-4 ; value: >162 µM
OCC(CO)OCc1ccc(F)cc1F ; cells: CEM ; value: >500 µg/mL
O=c1cc(Cc2ccc3ccccc3c2)nc(SC2CCCC2)[nH]1 ; strain or isolate: ROD ; cells: C8166 ; value: >100 µM
CCOC(=O)CCCCCn1c(Cc2ccccc2)c(C(C)C)c(=O)[nH]c1=O ; strain or isolate: EHO ; cells: MT-4 ; value: >100 µM
C[C@H](CC1CNC2C1CC(N)CN2N)OCP(=O)(O)O ; strain or isolate: ROD ; cells: CEM ; value: >100 µg/mL
Fc1cccc(-c2nnc3sc(CC45CC6CC(CC(C6)C4)C5)nn23)c1 ; strain or isolate: ROD ; cells: MT-4 ; value: >125 µg/mL
CC(C)c1c(Cc2ccccc2)n(CC(N)=O)c(=O)[nH]c1=O ; strain or isolate: EHO ; cells: MT-4 ; value: >100 µM
COc1ccc(/C=C2\C(=O)N(CCc3ccc(OC)c(OC)c3)C(=S)N2CCc2ccc(OC)c(OC)c2)cc1 ; strain or isolate: ROD ; cells: MT-4 ; value: >82.3 µg/mL
Brc1ccccc1-c1nnc2sc(CC34CC5CC(CC(C5)C3)C4)nn12 ; strain or isolate: ROD ; cells: MT-4 ; value: >24.7 µg/mL
COC(=O)/C=C1\S/C(=N/N=C/C2CCCCC2)NC1=O ; strain or isolate: ROD ; cells: MT-4 ; value: >57.53 µM
CCc1nc(NCN2C(=O)C(=Nc3ccc(S(=O)(=O)Nc4ncnc(OC)c4OC)cc3)c3cc(C)ccc32)nc(N)c1-c1ccc(Cl)cc1 ; strain or isolate: ROD ; cells: MT-4 ; value: >7 µg/mL
CC1(C)C(N)=CS(=O)(=O)N1Cc1ccccc1 ; strain or isolate: ROD ; cells: MT-4 ; value: >125 µg/mL
Cc1ncn(Nc2cccc(Cl)c2)c1C ; strain or isolate: ROD ; cells: MT-4 ; value: >214 µM
CC(=O)Nc1sc(Cl)cc1S(=O)(=O)c1ccccc1[N+](=O)[O-] ; strain or isolate: ROD ; cells: CEM + CEM/O ; value: >8 µg/mL
CCOC(=O)CCCn1c(Cc2ccccc2)c(C(C)C)c(=O)[nH]c1=O ; strain or isolate: EHO ; cells: MT-4 ; value: >65 µM
C[C@H](C[n+]1c[nH]c2c(Nc3ccccc3)nc(N)nc21)OCP(=O)(O)O ; strain or isolate: ROD ; cells: CEM ; value: 12.5 ± 3.5 µg/mL
CC(=O)Nc1sc([N+](=O)[O-])cc1S(=O)(=O)c1ccc(Cl)cc1 ; strain or isolate: ROD ; cells: CEM + CEM/O ; value: >0.32 µg/mL
COc1ccc(CCN2C(=O)/C(=C\c3ccc(F)cc3)N(CCc3ccc(OC)c(OC)c3)C2=S)cc1OC ; strain or isolate: ROD ; cells: MT-4 ; value: >18 µg/mL
C=CCNc1nn2c(=O)c3ccccc3nc2s1 ; strain or isolate: ROD ; cells: MT-4 ; value: 97.1 µg/mL
Cc1[nH]c(=S)n(Nc2cccc(Cl)c2)c1C(=O)O ; strain or isolate: ROD ; cells: MT-4 ; value: >266 µM
COc1c(Cl)cc(C(=CCCCCN[C@H]2CC[C@]3(C)C4CC[C@@]5(C)C(CC[C@@H]5C(C)CCCC(C)C)C4CC[C@H]3C2)c2cc(Cl)c(OC)c(C(=O)O)c2)cc1C(=O)O ; strain or isolate: ROD ; cells: MT-4 ; value: >150 µM
COc1ccc(CCN2C(=O)/C(=C\c3cccc(Br)c3)N(CCc3ccc(OC)c(OC)c3)C2=S)cc1OC ; strain or isolate: ROD ; cells: MT-4 ; value: >108 µg/mL
O=C(Nc1sccc1S(=O)(=O)c1ccccc1)c1cccnc1 ; strain or isolate: ROD ; cells: CEM + CEM/O ; value: >1.6 µg/mL
COC(=O)[C@H](CCCN=C(N)N)NC(=O)CCCCCNC(=O)CN(CCNC(=O)CN(CCNC(=O)OCc1ccccc1)C(=O)Cn1cnc2c(=O)[nH]c(N)nc21)C(=O)Cn1cnc2c(N)ncnc21 ; cells: PBMC/D194 + PBMC ; value: >200 µM
Nc1nc(N2CCCC2)c2ncn(CCOCP(=O)(O)O)c2n1 ; strain or isolate: ROD ; cells: MT-4 ; value: 2 µg/mL
COc1c(Cl)cc(C(=CCNC(=O)C[C@H]2CC[C@]3(C)C4CC[C@@]5(C)C(CC[C@@H]5CC(=O)NCC=C(c5cc(Cl)c(OC)c(C(=O)O)c5)c5cc(Cl)c(OC)c(C(=O)O)c5)C4CC[C@H]3C2)c2cc(Cl)c(OC)c(C(=O)O)c2)cc1C(=O)O ; strain or isolate: ROD ; cells: CEM + CEM-SS ; value: 70 µM
O=C(O)c1cccc(Cc2cccc(C(=O)O)c2O)c1O ; strain or isolate: ROD ; cells: MT-4 ; value: >40 µg/mL
Clc1ccc(-c2nnc3sc(CC45CC6CC(CC(C6)C4)C5)nn23)cc1 ; strain or isolate: ROD ; cells: MT-4 ; value: >125 µg/mL
COC(=O)c1ccccc1S(=O)(=O)c1ccsc1N ; strain or isolate: ROD ; cells: CEM + CEM/O ; value: 55 µg/mL
Cc1cn([C@H]2C=C[C@@H](CO)O2)c(=O)[nH]c1=O ; strain or isolate: ROD ; cells: MT-4 ; value: 0.77 µM

The last 7 rows once more:

{"structure": "COC(=O)[C@H](CCCN=C(N)N)NC(=O)CCCCCNC(=O)CN(CCNC(=O)CN(CCNC(=O)OCc1ccccc1)C(=O)Cn1cnc2c(=O)[nH]c(N)nc21)C(=O)Cn1cnc2c(N)ncnc21", "cells": "PBMC/D194 + PBMC", "value": ">200 µM"}
{"structure": "Nc1nc(N2CCCC2)c2ncn(CCOCP(=O)(O)O)c2n1", "strain or isolate": "ROD", "cells": "MT-4", "value": "2 µg/mL"}
{"structure": "COc1c(Cl)cc(C(=CCNC(=O)C[C@H]2CC[C@]3(C)C4CC[C@@]5(C)C(CC[C@@H]5CC(=O)NCC=C(c5cc(Cl)c(OC)c(C(=O)O)c5)c5cc(Cl)c(OC)c(C(=O)O)c5)C4CC[C@H]3C2)c2cc(Cl)c(OC)c(C(=O)O)c2)cc1C(=O)O", "strain or isolate": "ROD", "cells": "CEM + CEM-SS", "value": "70 µM"}
{"structure": "O=C(O)c1cccc(Cc2cccc(C(=O)O)c2O)c1O", "strain or isolate": "ROD", "cells": "MT-4", "value": ">40 µg/mL"}
{"structure": "Clc1ccc(-c2nnc3sc(CC45CC6CC(CC(C6)C4)C5)nn23)cc1", "strain or isolate": "ROD", "cells": "MT-4", "value": ">125 µg/mL"}
{"structure": "COC(=O)c1ccccc1S(=O)(=O)c1ccsc1N", "strain or isolate": "ROD", "cells": "CEM + CEM/O", "value": "55 µg/mL"}
{"structure": "Cc1cn([C@H]2C=C[C@@H](CO)O2)c(=O)[nH]c1=O", "strain or isolate": "ROD", "cells": "MT-4", "value": "0.77 µM"}